The text below walks through data of the supplement of paper PMC9931576.

Human monoclonal antibodies against the spike receptor-binding domain (heavy:light variable regions). IC50 against pseudoviruses bearing the spike of naturally observed variants; lower = stronger; >10 µg/ml means not reached at the top dose. No active / inactive call. The stated detection limit is 0.0005 µg/ml; values near or below 0.001 µg/ml lie at the floor of the assay.

The chains are these.
B1: BD55-5319 (protein)
chain 1: QVQLVQSGAEVKRPGASVKVSCKASENTFTTYAIHWVRQAPGQGLEWLGSINAGNGDTKHSQKFQGRVTISRDTSASTVYMDLSSLRSEDTAVYYCARARIVDAGMATFHHYFGIDVWGLGTTVTVSS
chain 2: SYELTQPPSVSVSPGQTATITCSGDALPKQYAYWYQQKSGQAPVLLIYKDTERPSGIPERFSGSSSGTTVTLTISGVQAEDEADYYCQSADASTTYIIFGGRTKLTVL
B2: BD55-5411 (protein)
chain 1: QVQLVESGGGVVQPGRSLRLSCVASGFTFSTYGIHWVRQAPGKGLEWVAVISYDARDEHHADPVKGRFTISRDNSKNTLYLQMNGLRVEDTAVYYCARDPVSMIRGVTLDYHYGMDVWGQGTTVTVSS
chain 2: DIQMTQSPSAVSASIGDRVTITCRASQDISRWLVWYQQKPGTAPKLLIKIASSLQSGVPSRFSGSGSGTDFTLTISSLQPEDFATYYCQQTNSFPLTFGGGTKVEIK
B3: BD55-5402 (protein)
chain 1: EVLLVESGGGLVQPGGSLRLSCAASGFIFNTYAMHWVRQSPGKGLEYVSSITNNGDGTFYADSVKGRFTISRDNSKNTLYLQMGSLRAEDMAVYYCARESRVVVDTVLDSWGQGTLVTVSS
chain 2: DIQMTQSPSSLSASVGDRVTISCRASQSIARYLNWYQLKPGKAPKLLIYGASNLQGGVPSRFSGSGSGTEFTLTISGLQPEDFATYYCQQSYISPQYTFGQGTKLDI
B4: BD55-5389 (protein)
chain 1: EAQLEESGGGLVKPGGSLRLSCVASGFTFNSYSMNWLRQAPGKGLEWVASMSRDSALKFYADSAQGRFTISRDNAKNSLFLHMSSLRAEDTAVYYCARESALTMTVDLDLWGQGTLVTVS
chain 2: DVQMTQSPPFLSASVGDRVTITCRASQNINTYLNWYQHKPGKAPKLLIYGASTLQRGVPSRFSGSGSGTDFSLTITGLQPEDFATYFCQQTYITPRVTFGQGTKLEIK
B5: BD55-5397 (protein)
chain 1: QVQLVQSGAEVKKPGTSVKVSCKPSGGTFNGYAINWVRQAPGQGLEWMGGIIPVFDTTNYAQKFQGRVRITADQSTSTAYVELSGLRSEDTAVYYCARSKYHPGYDMLTGRPDVSLPFDYWGQGTLVTVSS
chain 2: DIQMTQSPSSLSASVGDRVTITCQASQDISSHLSWYQQKPGKGPKLLIYHASNLETGVPSRFSGSGSGTDFIFTINSLQPEDIAIYYCQQYDNLPYTFGQGTKLE
B6: BD55-5361 (protein)
chain 1: EVQLVESGGGLVQPGGSLRLSCAASGFTFSSFDMHWVRQTTGKGLEWVSTIGTSGDTYYADSVKGRFTISRENAKNSLFLQMNSLRAGDTAVYYCARANYVGLTSYHDFWGQGTLVTVSS
chain 2: DIQMTQSPSSLSASVGDRVTITCRASQYISSYLNWYQQKPGKEPKLLIFAASTLQSGVPSRFSGGRSGTDFTLTISSLQPEDFATYYCQQTYVSPQFTFGQGTRLDIK
B7: BD55-5339 (protein)
chain 1: EVQLVESGEGLVQPGGSLRISCAASGFTFSNYPMHWVRQAPGQGLESVSSITSNGDGTFYANSVKGRFTISRDNSKNTLYLQMGSLRTEDTALYFCAREVAEQLDCYFDLWGRGTLVTVSS
chain 2: DIQMTQSPSSLSASVGDRVTITCRASQSIRTYLNWYQHKPGKAPKLLIFAASSLQSGVPSRFSGSGSGTDFSLTISSLQPEDFATYYCQQSYITPPITFGQGTRLEIK
B8: BD55-1049 (protein)
chain 1: QVQLVQSGAEVQKPGASVKVSCKASGYTFSAYYMYWVRQAPGQGLEWMGWINCNSGETKYAQNFQGSVNMTRDSSISTAYMELSRLRSDDTAVYYCARVNRREWGPQYGMDIWGQGTTVTVSS
chain 2: DIVMTQTPLFLSVTPGQPASISCKSSQSLLHGGGKTYLSWYLQKPGQSPRLLIYEVSNRFSVLPERFSGSGSGTDFTLKISRVQAEDVGVYYCMQGLSLPWTFGQGTKVEIK
B9: BD55-5396 (protein)
chain 1: EVQLVESGGGLIKPGGSLRLSCAASGFTFNSYTMSWVRQAPGKGLEWVSSISGSSTFIFYADSLKGRFTISRDNARNSLYLQMNTLRAEDTAVYYCARNFDILTPYADAEYFQYWGPGTLVTVSS
chain 2: EIVLTQSPATLSLSPGERATLSCRASQSVSSNVAWYQQKPGQAPRLLIYDASNRATGIPARFSGSGSGTDFTLTINSLEPEDFAVYYCQQRTNWPPYTFGQGTKLEIK
B10: BD55-5400 (protein)
chain 1: QVQLVQSGAEVKKPGASVKVSCKASGYTFTTHYMHWVRQAPGQGLEWMGIINPNTGTTTYAQKFQGRLTMTRDTSTSTVYMELSRLTSEDTAMYFCARDRVIGVVSIDWFDPWGQGTLVTVSS
chain 2: DIQLTQSPSSLSASIGDRVTLTCRASQYIRNYLNWYQQKPGKAPQLLISAASSLQSGVPSRFSGSGSGTDFTLTISSLQPEDFATYYCQQSYVTPPYTFGQGTKLEIR
B11: BD55-5387 (protein)
chain 1: EVQLVESGGGLVQPGRSLRLSCGASGFMFDDYALHWVRQAPGRGLEWVSSISWNSGDIAYADSVKGRFTISRDNAKHSLYLQMNSLRGDDTAFYYCARSRLAEMVGVHFDYWGQGALVTVSS
chain 2: EIVMTQSPATLSVSPGDRATLSCRASQSVSSNLAWYQQKPGQAPRLLIYGASTRATGIPARFSGSGSGTEFTLTISSLQSEDFGVYYCQQYNTWPPMYTFGQGTKLEIK
B12: BD55-5416 (protein)
chain 1: QIQLQQSGPGLVKPSQTLSLTCALSGDSVSSDSSAWNWIRQSPSRGLEWLGRTYYRSKWYNDYAVSVKSRITINPDTSKNQFSLQLKSVTPEDTAVYYCVREWLDLGDNWFDPWGQGTLVTVSS
chain 2: QSALTQPASVSGSPGQSITFSCTGTSSDVGDYNYVSWYQQHPGKAPKLIIYDVNTRPAGVSNRFSGSKSGNTASLTISGLQAEDEADYYCSSYTSSRTYVFGAGTKVTVL

One test deals with SARS-CoV-2 Omicron BA.1 spike pseudovirus. The test is described as follows: pseudovirus neutralization IC50; higher = weaker neutralization. On the procedure:
(§1)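 Single-round VSV luciferase pseudovirus mixed with antibody dilutions for 1 h and put on Huh-7 cells for about a day; IC50 from the dose curve.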
For the molecule B1, the “pseudovirus neutralization IC50” value was 0.159 µg/mL.
The same measure, in the same setting: to B2 belongs above 10 µg/mL; to B3, above 10 µg/mL.
On the same count and under the same terms, to B4 belongs above 10 µg/mL; to B5, 2.49 µg/mL.
Same read-out and setting: for B6 the value was above 10 µg/mL; for B7, above 10 µg/mL; for B8, above 10 µg/mL.
As for B9, the “pseudovirus neutralization IC50” value was above 10 µg/mL.
On to B10, for which the “pseudovirus neutralization IC50” value is above 10 µg/mL.
Still for that read-out and setting: for B11 the value was above 10 µg/mL; for B12, above 10 µg/mL.

The target of a further test is SARS-CoV-2 Omicron BA.2 spike pseudovirus. The description is as above. On the procedure:
as §1
Consider B1, for which the “pseudovirus neutralization IC50” value turned out to be 0.367 µg/mL.
As to B2, the “pseudovirus neutralization IC50” value is above 10 µg/mL.
Take B3: the “pseudovirus neutralization IC50” value was above 10 µg/mL.
The same measure, in the same setting: to B4 belongs above 10 µg/mL; to B5, 1.17 µg/mL; to B6, above 10 µg/mL.
For the molecule B7, the “pseudovirus neutralization IC50” value is above 10 µg/mL.
The same measure, in the same setting: to B8 belongs above 10 µg/mL; to B9, above 10 µg/mL; to B10, above 10 µg/mL.
Same read-out and setting: for B11 the value was above 10 µg/mL; for B12, above 10 µg/mL.

In another test the target is SARS-CoV-2 Omicron BA.2.75 spike pseudovirus. The test is described as above. On the procedure:
as §1
Consider B1, for which the “pseudovirus neutralization IC50” value turned out to be 1.22 µg/mL.
On the same count and under the same terms, to B2 belongs above 10 µg/mL; to B3, above 10 µg/mL.
B4: the “pseudovirus neutralization IC50” value was above 10 µg/mL.
Same read-out and setting: for B5 the value was 2.72 µg/mL.
With B6, the “pseudovirus neutralization IC50” value is above 10 µg/mL.
Regarding B7, the “pseudovirus neutralization IC50” value is above 10 µg/mL.
The same measure, in the same setting: for B8 the value was above 10 µg/mL; for B9, above 10 µg/mL.
Consider B10, for which the “pseudovirus neutralization IC50” value was above 10 µg/mL.
The same measure, in the same setting: to B11 belongs above 10 µg/mL; to B12, above 10 µg/mL.

A further test concerns the target SARS-CoV-2 Omicron BA.5 spike pseudovirus. The description is as above. On the procedure:
as §1
As for B1, the “pseudovirus neutralization IC50” value turned out to be 1.09 µg/mL.
On the same count and under the same terms, for B2 the value was above 10 µg/mL; for B3, above 10 µg/mL; for B4, above 10 µg/mL.
On the same count and under the same terms, for B5 the value was 3.22 µg/mL.
Regarding B6, the “pseudovirus neutralization IC50” value was above 10 µg/mL.
Consider B7, for which the “pseudovirus neutralization IC50” value is above 10 µg/mL.
For the molecule B8, the “pseudovirus neutralization IC50” value is above 10 µg/mL.
The same measure, in the same setting: to B9 belongs above 10 µg/mL; to B10, above 10 µg/mL.
Still for that read-out and setting: to B11 belongs above 10 µg/mL.
Still for that read-out and setting: for B12 the value was above 10 µg/mL.

The target of a further test is SARS-CoV-2 Omicron BQ.1.1 spike pseudovirus. The description is as above. As for the experimental part: as §1
For the molecule B1, the “pseudovirus neutralization IC50” value was above 10 µg/mL.
As to B2, the “pseudovirus neutralization IC50” value is above 10 µg/mL.
Take B3: the “pseudovirus neutralization IC50” value was above 10 µg/mL.
On the same count and under the same terms, for B4 the value was above 10 µg/mL; for B5, 3.08 µg/mL; for B6, above 10 µg/mL.
On the same count and under the same terms, to B7 belongs above 10 µg/mL; to B8, above 10 µg/mL.
As for B9, the “pseudovirus neutralization IC50” value is above 10 µg/mL.
Still for that read-out and setting: for B10 the value was above 10 µg/mL.
Still for that read-out and setting: for B11 the value was above 10 µg/mL; for B12, above 10 µg/mL.

The target of another test is SARS-CoV-2 Omicron XBB spike pseudovirus. The test is described as above. As for the experimental part:
as §1
For B1, the “pseudovirus neutralization IC50” value is above 10 µg/mL.
Still for that read-out and setting: to B2 belongs above 10 µg/mL; to B3, above 10 µg/mL; to B4, above 10 µg/mL.
In the case of B5, the “pseudovirus neutralization IC50” value is 2.72 µg/mL.
For the molecule B6, the “pseudovirus neutralization IC50” value is above 10 µg/mL.
Regarding B7, the “pseudovirus neutralization IC50” value was above 10 µg/mL.
Still for that read-out and setting: to B8 belongs above 10 µg/mL; to B9, above 10 µg/mL.
On the same count and under the same terms, to B10 belongs above 10 µg/mL; to B11, above 10 µg/mL; to B12, above 10 µg/mL.

A further test deals with SARS-CoV-2 early D614G spike pseudovirus. The test is described as above. On the procedure: as §1
As for B1, the “pseudovirus neutralization IC50” value amounted to 0.015 µg/mL.
In the case of B2, the “pseudovirus neutralization IC50” value is above 10 µg/mL.
For the molecule B3, the “pseudovirus neutralization IC50” value was above 10 µg/mL.
For B4, the “pseudovirus neutralization IC50” value is above 10 µg/mL.
With B5, the “pseudovirus neutralization IC50” value was found to be 0.442 µg/mL.
On the same count and under the same terms, to B6 belongs 2.39 µg/mL; to B7, 0.152 µg/mL; to B8, 0.0477 µg/mL.
Still for that read-out and setting: to B9 belongs 1.92 µg/mL; to B10, above 10 µg/mL.
Same read-out and setting: to B11 belongs 0.73 µg/mL.
On to B12, for which the “pseudovirus neutralization IC50” value came to 0.119 µg/mL.
